Reference: US20190298669A1 (priority 2018, published 2019)

Tested on: A/Mississippi/3/2001 H275Y mutant (H1N1)
Test: Plaque assay of virus titer in infected A549 cells, oseltamivir-resistant strain
Assay type: cell-based, influenza A virus
Conditions: MOI=0.005, 24 h, 1 μM Tamiflu

O=C(NOCC1CC1)c1ccc(F)c(F)c1Nc1ccc(I)cc1Cl
reduction of virus: 99.9%
